PubChem BioAssay AID624099, ICCB-Longwood, 2012

- Purpose: 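Knock-downs relieving repression by E2 of an HPV18 LCR luciferase reporter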 (primary screen)
- Cells: human C33A cervical carcinoma cells (HPV-negative) stably expressing BPV1 E2 and an HPV18 LCR luciferase reporter
- Knock-down reagent: siRNA pool against human genes, 40 nM
- Timing: 72 h
- Measurement: 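Per-well luciferase luminescence, z-scored on each plate against the plate mean and SD with control wells left out, then averaged across three replicate plates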
- Reading the numbers: mean z-score and z-score: higher = stronger reporter signal, weaker E2 silencing
- Rule for the call: 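Hit if mean z-score reaches 2 and two or more of three replicate z-scores also reach 2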
Shown is one part, drawn at random, of about 21,000 reagents tested. Of all reagents, 497 (2.4%) are marked active. 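Higher z means weaker E2 silencing; only reporter increases were scored, and knock-downs that hurt cell survival may mask genuine repressor factors.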 Reagents against one gene are numbered here.

no.	Gene	reagent no.	mean z-score	z-score, replicate A	z-score, replicate B	z-score, replicate C	Outcome
1	LHX4	1	0.68	0.46	0.71	0.88	inactive
2	RMDN1	1	-0.02	-0.14	-0.05	0.14	inactive
3	NPPB	1	0.45	0.49	0.5	0.36	inactive
4	HSPA2	1	-0.63	-0.56	-0.78	-0.55	inactive
5	SETP20	1	-0.72	-0.5	-1.29	-0.37	inactive
6	NR0B2	1	0.52	0.69	0.51	0.35	inactive

Individual results from the entries so far.
Under “Outcome”, NR0B2 is entered as inactive
RMDN1, z-score, replicate C = 0.14

The listing continues.
no.	Gene	reagent no.	mean z-score	z-score, replicate A	z-score, replicate B	z-score, replicate C	Outcome
7	SH3TC2-DT	1	1.37	1.47	1.49	1.14	inactive
8	ABCA1	1	-0.29	-0.16	-0.19	-0.53	inactive
9	BTBD8	1	-0.62	-0.54	-0.83	-0.5	inactive
10	BTBD8	2	-1.47	-1.64	-1.54	-1.23	inactive
11	OAZ2	1	-0.78	-0.61	-0.92	-0.8	inactive
12	PLSCR3	1	0.06	-0.04	0.16	0.06	inactive
13	HISLA	1	-1.39	-1.06	-1.56	-1.56	inactive
14	OR52I2	1	1.27	1.07	1.57	1.17	inactive
